# Columns and labels:
# By UniProt entry, the sequences of proteins in these tests, tags left out. Residues count along the entry.
# UniProt D0C8Z9, whole entry: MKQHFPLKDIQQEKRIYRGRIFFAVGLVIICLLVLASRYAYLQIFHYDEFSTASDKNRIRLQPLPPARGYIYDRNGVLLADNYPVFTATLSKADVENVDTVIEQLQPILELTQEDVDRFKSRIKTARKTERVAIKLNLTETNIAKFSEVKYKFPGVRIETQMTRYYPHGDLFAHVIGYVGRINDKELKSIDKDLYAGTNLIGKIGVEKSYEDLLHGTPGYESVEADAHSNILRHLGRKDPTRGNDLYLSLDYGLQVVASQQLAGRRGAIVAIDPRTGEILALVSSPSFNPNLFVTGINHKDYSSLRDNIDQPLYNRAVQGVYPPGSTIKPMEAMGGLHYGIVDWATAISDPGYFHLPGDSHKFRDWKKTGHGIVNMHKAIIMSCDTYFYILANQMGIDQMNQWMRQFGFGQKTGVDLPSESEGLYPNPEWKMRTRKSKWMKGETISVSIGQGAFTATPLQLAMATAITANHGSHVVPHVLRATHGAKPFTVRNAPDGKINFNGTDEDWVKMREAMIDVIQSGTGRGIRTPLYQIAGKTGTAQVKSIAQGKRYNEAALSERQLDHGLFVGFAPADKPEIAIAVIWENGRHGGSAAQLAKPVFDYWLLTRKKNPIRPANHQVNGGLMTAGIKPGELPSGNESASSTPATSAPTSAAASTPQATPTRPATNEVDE
# UniProt G3XD46, whole entry: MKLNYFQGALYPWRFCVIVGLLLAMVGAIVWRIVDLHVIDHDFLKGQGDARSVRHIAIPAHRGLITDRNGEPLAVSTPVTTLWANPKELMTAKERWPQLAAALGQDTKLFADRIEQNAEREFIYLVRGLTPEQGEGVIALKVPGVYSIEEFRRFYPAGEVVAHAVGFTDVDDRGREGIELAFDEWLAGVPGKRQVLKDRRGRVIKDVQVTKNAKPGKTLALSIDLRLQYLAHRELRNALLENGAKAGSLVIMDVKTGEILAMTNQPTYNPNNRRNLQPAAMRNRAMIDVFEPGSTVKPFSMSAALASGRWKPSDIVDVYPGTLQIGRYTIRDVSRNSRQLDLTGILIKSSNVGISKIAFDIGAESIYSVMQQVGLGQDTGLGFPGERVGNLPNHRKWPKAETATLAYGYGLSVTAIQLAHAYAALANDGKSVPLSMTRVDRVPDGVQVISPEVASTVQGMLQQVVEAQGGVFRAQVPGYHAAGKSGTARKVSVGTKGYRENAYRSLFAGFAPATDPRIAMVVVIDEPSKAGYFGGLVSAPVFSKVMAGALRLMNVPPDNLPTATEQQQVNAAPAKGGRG
# UniProt A0ABX6CK30, 1-851: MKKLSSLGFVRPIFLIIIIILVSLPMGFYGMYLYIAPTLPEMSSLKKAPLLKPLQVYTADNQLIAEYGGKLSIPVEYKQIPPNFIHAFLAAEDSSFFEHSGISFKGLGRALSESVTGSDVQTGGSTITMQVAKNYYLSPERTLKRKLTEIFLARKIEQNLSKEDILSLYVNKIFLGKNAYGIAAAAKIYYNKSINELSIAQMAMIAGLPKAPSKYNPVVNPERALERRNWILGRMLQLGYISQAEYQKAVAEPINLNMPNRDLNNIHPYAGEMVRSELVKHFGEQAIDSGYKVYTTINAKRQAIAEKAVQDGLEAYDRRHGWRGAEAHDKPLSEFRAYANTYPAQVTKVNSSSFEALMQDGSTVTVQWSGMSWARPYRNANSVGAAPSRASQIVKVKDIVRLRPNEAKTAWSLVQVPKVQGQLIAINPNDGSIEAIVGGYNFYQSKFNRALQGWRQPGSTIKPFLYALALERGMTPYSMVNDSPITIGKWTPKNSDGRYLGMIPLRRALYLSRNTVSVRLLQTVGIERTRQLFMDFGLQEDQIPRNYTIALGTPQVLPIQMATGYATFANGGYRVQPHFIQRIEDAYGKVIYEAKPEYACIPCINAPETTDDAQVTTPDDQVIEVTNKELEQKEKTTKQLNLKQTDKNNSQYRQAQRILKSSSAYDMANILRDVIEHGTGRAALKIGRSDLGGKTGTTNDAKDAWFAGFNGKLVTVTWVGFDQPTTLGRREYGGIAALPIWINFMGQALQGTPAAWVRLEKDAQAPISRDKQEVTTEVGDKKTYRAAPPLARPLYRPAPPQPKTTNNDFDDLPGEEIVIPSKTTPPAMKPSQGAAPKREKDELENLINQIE
# UniProt A0ABX6CK25, 64-610 limits assumed: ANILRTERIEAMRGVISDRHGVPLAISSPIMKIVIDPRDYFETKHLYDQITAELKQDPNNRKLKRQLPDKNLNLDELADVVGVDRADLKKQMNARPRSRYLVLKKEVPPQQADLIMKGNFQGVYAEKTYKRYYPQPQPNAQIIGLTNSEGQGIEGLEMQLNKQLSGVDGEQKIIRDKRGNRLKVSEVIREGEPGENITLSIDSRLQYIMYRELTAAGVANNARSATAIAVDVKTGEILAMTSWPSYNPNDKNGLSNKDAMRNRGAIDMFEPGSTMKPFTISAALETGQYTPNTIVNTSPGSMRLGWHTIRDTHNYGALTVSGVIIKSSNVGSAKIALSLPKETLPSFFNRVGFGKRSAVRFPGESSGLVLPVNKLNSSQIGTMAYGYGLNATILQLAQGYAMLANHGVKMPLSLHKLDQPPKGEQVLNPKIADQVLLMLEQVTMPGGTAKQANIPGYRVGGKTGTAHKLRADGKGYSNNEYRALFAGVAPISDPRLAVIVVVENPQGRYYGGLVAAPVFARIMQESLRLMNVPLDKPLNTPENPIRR
# A. baumannii PBP2 = A. baumannii PBP2 (Acinetobacter baumannii, UniProt D0C8Z9); assay: Bocillin-FL competition binding via gel filtration, A. baumannii PBP2; settings: read-out: A. baumannii PBP2 Potency; competition binding assay using Bocillin-FL via gel filtration
# Description: Affinity to A. baumannii PBP1a and PBP2 was assessed a competitive equilibrium binding assay using Bocillin-FL as the reporter molecule. Enzyme was pre-incubated with increasing concentrations of inhibitors, prior to addition of Bocillin and further incubation for 15 minutes. PBP bound with Bocillin-FL was separated by gel filtration using 96-well Zeba Spin size exclusion plates, and the fluorescence measured. The inhibitor affinity (reported as the EC50) was determined by plotting the fraction of PBP bound with Bocillin-FL at each inhibitor concentration against the inhibitor concentration, and fitting the data to the following equation:
# [formula] • where y is the fraction bound at a given inhibitor concentration, ymin is the fraction bound when the enzyme is completely inactivated, ymax is the maximum (uninhibited) fraction bound, n is the Hill coefficient, and x is the inhibitor concentration.
# A. baumannii 1258916 = assay: Broth microdilution MIC in iron-depleted CAMHB (IDM)
# [1] = system: P. aeruginosa (ΔmexAB-oprM); assay: as above; settings: ΔmexAB-oprM (efflux pump-compromised)
# P. aeruginosa CDC-0054 = assay: as above
# [2] = system: B. humptydooensis ATCC BAA-2767; assay: as above
# A. baumannii CDC-0033 = assay: as above
# A. baumannii CDC-0036 = assay: as above
# A. baumannii ATCC 19606 = assay: as above
# [3] = system: B. thailandensis ATCC 700388; assay: as above
# A. baumannii CDC-0045 = assay: as above
# P. aeruginosa CDC-0090 = assay: as above
# P. aeruginosa CDC-0110 = assay: as above
# P. aeruginosa CDC-0095 = assay: as above
# P. aeruginosa ATCC 27853 = assay: as above
# A. baumannii ATCC 17978 = assay: as above
# P. aeruginosa ATCC 35151 = assay: as above; settings: ATCC 35151 (hyper-permeable)
# [4] = molecular target: PBP3 from Pseudomonas aeruginosa (PAO1) (Pseudomonas aeruginosa, UniProt G3XD46); assay: Bocillin-FL fluorescence polarization competition binding, P. aeruginosa PBP3; settings: read-out: P. aeruginosa PBP3 Potency; Binding affinity to P. aeruginosa PBP3; fluorescence polarization competition binding assay using Bocillin-FL
# Excerpt: (§1) To determine the ability of boronic acid-based test PBP inhibitors to bind Penicillin Binding Proteins (PBPs), Bocillin-FL (fluorescently-labeled penicillin V; ThermoFisher Scientific) was used in a fluorescence polarization (FP) competition binding assay to assess inhibitor binding to PBP3 from Escherichia coli (K-12), PBP3 from Pseudomonas aeruginosa (PAO1), PBP1a and PBP3 from Acinetobacter baumannii (ATCC 19606), and PBP2 from Neisseria gonorrhoeae (FA19). PBPs were cloned and purified as described previously (E. coli PBP3, King, D. T, et al., ACS Infectious Diseases 2015, 1, 175-184; P. aeruginosa PBP3, Han et. al., PNAS 2010, 107 (51), 22002-22007; A. baumannii PBPs, Penwell et. al., Antimicrob. Agents Chemother. 2015, 59 (3), 1680-1689; N. gonorrhoeae PBP2, Singh et. al., J. Biol. Chem. 2019, 294 (38), 14020-14032). To establish assay conditions for competition binding, enzyme titration/saturation binding experiments were initially performed. […] FP was measured immediately upon mixing (Excitation, 490 nm; Emission, 520 nm; g-factor, 0.96), using a Cytation3 (BioTek) microplate reader and measured continuously for up to 120 minutes. […] For N. gonorrhoeae PBP2 assays, cefixime, ceftriaxone was mixed with Bocillin-FL, then enzyme was added, and the FP was immediately measured for up to 30 minutes. […]
# A. baumannii PBP1a = A. baumannii PBP1a (Acinetobacter baumannii, UniProt A0ABX6CK30); assay: Bocillin-FL competition binding via gel filtration, A. baumannii PBP1a; settings: read-out: A. baumannii PBP1a Potency; competition binding assay using Bocillin-FL via gel filtration
# [5] = molecular target: PBP3 from Acinetobacter baumannii (ATCC 19606) (Acinetobacter baumannii, UniProt A0ABX6CK25); assay: Bocillin-FL fluorescence polarization competition binding, A. baumannii PBP3; settings: fluorescence polarization competition binding assay using Bocillin-FL
# Excerpt: as §1
compound,measurement,setting,value
O=C(O)c1c(F)ccc2c1OB(O)[C@@H](NC(=O)C(NC(=O)N1CCN(C3CCN(C(=O)Nc4cc(F)c(F)c(O)c4F)CC3)C1=O)c1cc(F)c(O)c(O)c1Cl)C2 (some centres unmarked),EC50,A. baumannii PBP2,< 10 µM
same,"MIC, A. baumannii 1258916",A. baumannii 1258916,E (E represents an MIC≤1 μg/mL)
same,"Minimum inhibitory concentration, P. aeruginosa ΔmexAB-oprM",[1],E (E represents an MIC≤1 μg/mL)
same,"Minimum inhibitory concentration, P. aeruginosa CDC-0054",P. aeruginosa CDC-0054,E (E represents an MIC≤1 μg/mL)
same,"Minimum inhibitory concentration (MIC), B. humptydooensis ATCC BAA-2767",[2],E (E represents an MIC≤1 μg/mL)
same,"MIC, A. baumannii CDC-0033",A. baumannii CDC-0033,D (D represents an MIC from 2 to 4 μg/mL)
same,"MIC, A. baumannii CDC-0036",A. baumannii CDC-0036,E (E represents an MIC≤1 μg/mL)
same,"MIC, A. baumannii ATCC 19606",A. baumannii ATCC 19606,E (E represents an MIC≤1 μg/mL)
same,"Minimum inhibitory concentration (MIC), B. thailandensis ATCC 700388",[3],E (E represents an MIC≤1 μg/mL)
same,"MIC, A. baumannii CDC-0045",A. baumannii CDC-0045,E (E represents an MIC≤1 μg/mL)
same,"Minimum inhibitory concentration, P. aeruginosa CDC-0090",P. aeruginosa CDC-0090,D (D represents an MIC from 2 to 4 μg/mL)
same,"Minimum inhibitory concentration, P. aeruginosa CDC-0110",P. aeruginosa CDC-0110,E (E represents an MIC≤1 μg/mL)
same,"Minimum inhibitory concentration, P. aeruginosa CDC-0095",P. aeruginosa CDC-0095,C (C represents an MIC from 8 to 16 μg/mL)
same,"Minimum inhibitory concentration, P. aeruginosa ATCC 27853",P. aeruginosa ATCC 27853,D (D represents an MIC from 2 to 4 μg/mL)
same,"MIC, A. baumannii ATCC 17978",A. baumannii ATCC 17978,E (E represents an MIC≤1 μg/mL)
same,"Minimum inhibitory concentration, P. aeruginosa ATCC 35151",P. aeruginosa ATCC 35151,E (E represents an MIC≤1 μg/mL)
same,IC50,[4],< 10 µM
same,EC50,A. baumannii PBP1a,< 10 µM
same,A. baumannii PBP3 Potency,[5],D (D represents potency <10 μM)
O=C(NCCCS(=O)(=O)N1CCN(C(=O)N[C@@H](C(=O)N[C@H]2Cc3ccc(F)c(C(=O)O)c3OB2O)c2ccc(P(=O)(O)O)cc2)C1=O)c1ccc(O)c(O)c1Cl,EC50,A. baumannii PBP2,50 to 250 µM
same,"MIC, A. baumannii 1258916",A. baumannii 1258916,A (A represents an MIC≥128 μg/mL)
same,"Minimum inhibitory concentration, P. aeruginosa ΔmexAB-oprM",[1],A (A represents an MIC≥128 μg/mL)
same,"Minimum inhibitory concentration, P. aeruginosa CDC-0054",P. aeruginosa CDC-0054,A (A represents an MIC≥128 μg/mL)
same,"Minimum inhibitory concentration (MIC), B. humptydooensis ATCC BAA-2767",[2],A (A represents an MIC≥128 μg/mL)
same,"MIC, A. baumannii CDC-0033",A. baumannii CDC-0033,A (A represents an MIC≥128 μg/mL)
same,"MIC, A. baumannii CDC-0036",A. baumannii CDC-0036,A (A represents an MIC≥128 μg/mL)
same,"MIC, A. baumannii ATCC 19606",A. baumannii ATCC 19606,E (E represents an MIC≤1 μg/mL)
same,"Minimum inhibitory concentration (MIC), B. thailandensis ATCC 700388",[3],A (A represents an MIC≥128 μg/mL)
same,"MIC, A. baumannii CDC-0045",A. baumannii CDC-0045,A (A represents an MIC≥128 μg/mL)
same,"Minimum inhibitory concentration, P. aeruginosa CDC-0090",P. aeruginosa CDC-0090,A (A represents an MIC≥128 μg/mL)
same,"Minimum inhibitory concentration, P. aeruginosa CDC-0110",P. aeruginosa CDC-0110,A (A represents an MIC≥128 μg/mL)
same,"Minimum inhibitory concentration, P. aeruginosa CDC-0095",P. aeruginosa CDC-0095,A (A represents an MIC≥128 μg/mL)
same,"Minimum inhibitory concentration, P. aeruginosa ATCC 27853",P. aeruginosa ATCC 27853,A (A represents an MIC≥128 μg/mL)
same,"MIC, A. baumannii ATCC 17978",A. baumannii ATCC 17978,E (E represents an MIC≤1 μg/mL)
same,"Minimum inhibitory concentration, P. aeruginosa ATCC 35151",P. aeruginosa ATCC 35151,D (D represents an MIC from 2 to 4 μg/mL)
same,IC50,[4],10 to 50 µM
same,EC50,A. baumannii PBP1a,50 to 250 µM
same,A. baumannii PBP3 Potency,[5],D (D represents potency <10 μM)
